Experimental data as given in paper PMC9416111, “Synthesis and Biological Activity of Unsymmetrical Monoterpenylhetaryl Disulfides” (Molecules, 2022).

These compounds were tested on influenza virus A/Puerto Rico/8/34 (H1N1) (assay: Antiviral cell protection assay in MDCK cells). Details: ratio of CC50 to IC50 (MDCK).
Type: cell-based

Point of comparison: Cc1cc(C)nc(SS[C@H]2C[C@H]3C[C@@H]([C@@H]2CO)C3(C)C)n1 [Compound 3b, ((1S,2R,3S,5R)-3-((4,6-dimethylpyrimidin-2-yl)disulfanyl)-6,6-dimethylbicyclo[3.1.1]heptan-2-yl)methanol], SI 5. Against it:
- CC(C)[C@@H]1CC[C@@H](C)C[C@@H]1SSc1nc2ccccc2s1 [Compound 1a, 2-(((1S,2S,5R)-2-isopropyl-5-methylcyclohexyl)disulfanyl)benzo[d]thiazole] — higher, 8
- Cc1cc(C)nc(SS[C@H]2C[C@H](C)CC[C@H]2C(C)C)n1 [Compound 1b, 2-(((1S,2S,5R)-2-isopropyl-5-methylcyclohexyl)disulfanyl)-4,6-dimethylpyrimidine] — lower, 2
- COC(=O)c1cccnc1SS[C@H]1C[C@H](C)CC[C@H]1C(C)C [Compound 1c, Methyl 2-(((1S,2S,5R)-2-isopropyl-5-methylcyclohexyl)disulfanyl)pyridine-3-carboxylate] — lower, 3
- CC(C)[C@@H]1CC[C@@H](C)C[C@@H]1SSc1ncccc1C(=O)O [Compound 1d, 2-(((1S,2S,5R)-2-isopropyl-5-methylcyclohexyl)disulfanyl)nicotinic acid] — lower, 1
- CC1(C)[C@H]2CC[C@@H](CSSc3nc4ccccc4s3)[C@@H]1C2 [Compound 2a, 2-((((1S,2R,5S)-6,6-dimethylbicyclo [3.1.1]heptan-2-yl)methyl)disulfaneyl)benzo[d]thiazole] — higher, 8
- Cc1cc(C)nc(SSC[C@@H]2CC[C@H]3C[C@@H]2C3(C)C)n1 [Compound 2b, 2-((((1S,2R,5S)-6,6-dimethylbicyclo[3.1.1]heptan-2-yl)methyl)disulfanyl)-4,6-dimethylpyrimidine] — lower, 3
- COC(=O)c1cccnc1SSC[C@@H]1CC[C@H]2C[C@@H]1C2(C)C [Compound 2c, Methyl 2-((((1S,2R,5S)-6,6-dimethylbicyclo[3.1.1]heptan-2-yl)methyl)disulfaneyl)pyridine-3-carboxylate] — higher, 6
- CC1(C)[C@H]2C[C@H](SSc3nc4ccccc4s3)[C@@H](CO)[C@@H]1C2 [Compound 3a, ((1S,2R,3S,5R)-3-(benzo[d]thiazol-2-yldisulfanyl)-6,6-dimethylbicyclo[3.1.1]heptan-2-yl)methanol] — lower, 4
- COC(=O)c1cccnc1SS[C@H]1C[C@H]2C[C@@H]([C@@H]1CO)C2(C)C [Compound 3c, Methyl 2-(((1S,2R,3S,5R)-2-(hydroxymethyl)-6,6-dimethylbicyclo[3.1.1]hept-3-yl)disulfanyl)pyridine-3-carboxylate] — lower, 1
- CC1(C)[C@H]2C[C@H](SSc3ncccc3C(=O)O)[C@@H](CO)[C@@H]1C2 [Compound 3d, 2-(((1S,2R,3S,5R)-2-(hydroxymethyl)-6,6-dimethylbicyclo[3.1.1]heptan-3-yl)disulfanyl)nicotinic acid] — lower, 2
- CC1(C)[C@H]2C[C@H](O)[C@@H](CSSc3nc4ccccc4s3)[C@@H]1C2 [Compound 4a, (1S,2S,3S,5R)-2-((benzo[d]thiazol-2-yldisulfanyl)methyl)-6,6-dimethylbicyclo[3.1.1]heptan-3-ol] — lower, 2
- Cc1cc(C)nc(SSC[C@@H]2[C@@H](O)C[C@H]3C[C@@H]2C3(C)C)n1 [Compound 4b, (1S,2S,3S,5R)-2-(((4,6-dimethylpyrimidin-2-yl)disulfanyl)methyl)-6,6-dimethylbicyclo[3.1.1]heptan-3-ol] — lower, 3
- COC(=O)c1cccnc1SSC[C@@H]1[C@@H](O)C[C@H]2C[C@@H]1C2(C)C [Compound 4c, Methyl 2-((((1S,2S,3S,5R)-3-hydroxy-6,6-dimethylbicyclo[3.1.1]heptan-2-yl)methyl)disulfanyl)pyridine-3-carboxylate] — lower, 1
- CC1(C)[C@H]2C[C@H](O)[C@@H](CSSc3ncccc3C(=O)O)[C@@H]1C2 [Compound 4d, 2-((((1S,2S,3S,5R)-3-hydroxy-6,6-dimethylbicyclo[3.1.1]heptan-2-yl)methyl)disulfanyl)nicotinic acid] — lower, 2
- CC(N)C12CC3CC(CC(C3)C1)C2 (centres unmarked) [Rimantadine, reference compound] — higher, 6

In the case of CC1(C)[C@H]2CC[C@@H](CSSc3ncccc3C(=O)O)[C@@H]1C2 [Compound 2d, 2-((((1S,2R,5S)-6,6-dimethylbicyclo[3.1.1]heptan-2-yl)methyl)disulfanyl)nicotinic acid], the SI is reported as > 10 and 12.

“And” between values parts separate entries of the source, which are not always exact repeats. Identical values can stand only once.
